2 molecules from PMC12432892, “Therapeutic applications of interface-mimicking peptides for targeting the SARS-CoV-2 NSP12-NSP8 RdRp complex” (Molecular Therapy, 2025) can be followed below.

In the test the target is SARS-CoV-2 NSP12 (SARS-CoV-2), P0DTD1.

As for ARDGCVPLNIIPLTTAAKLMVVIPD (modifications not checked) [N8-PepβD], the IC50 of inhibition of SARS-CoV-2 RdRp activity in the cell-based minigenome (luciferase) assay; pair blocked: NSP12-NSP8 stood at 31.2 µM. For LNNIINNARDGCVPLNIIPLTTAAKLMVV (modifications not checked) [N8-Pepβ] the value was 58 µM.
